Experimental data: patent US20230381142A1, “ANTILEISHMANIAL COMPOUNDS, COMPOSITIONS AND USE THEREOF” (TRUSTEES OF BOSTON UNIVERSITY, priority 2022, published 2023)

These molecules were tested on L. donovani intracellular amastigotes in B10R cells (assay: UCSD L. donovani infection assay (Assay Conditions D)). Conditions: UCSD assay, CC50 versus L. donovani infection EC50.
Format: cell-based
Method: (§1) Assay Conditions D: B10R cells (CVCL_0155) were seeded at 300 cells/well, and L. donovani WT promastigotes in stationary phase (7th day after passage) were added at 6,000 parasites/well (ratio of 20 parasites/cell). Both cells and parasites were seeded in DMEM High-Glucose medium (Gibco, cat. no. 11995065) containing 5% Fetal Bovine Serum (Sigma-Aldrich, cat. no. F2442) and 1% Penicillin-Streptomycin (Gibco, cat. no. 15140122). Cells and parasites were incubated in the presence of the compounds for 72 h at 37° C. and 5% C02. Plates were then fixed with 4% formaldehyde solution for at least 1 h, then washed with 1×PBS and stained with 5 μg/mL DAPI. Plates were read using an ImageXpress microscope (Molecular Devices) and analyzed by MetaXpress software (Molecular Devices) using a custom module optimized for this assay. […] Compounds were tested in a 10-point 2-fold serial dilution in 3 technical replicates, and 2 biological replicates. After 72 h, plates were fixed and stained with DAPI as described above. Images were acquired on an ImageXpress microscope, and analyzed using the MetaXpress custom module.
as §1, with “Compounds were obtained as 0.2 μmoles of dried film for primary single point screening. Each compound was diluted in DMSO to 10 μM final testing concentration. These compounds were tested in 2 biological replicates. The compounds were pre-spotted onto 384-well assay plates in single concentration.” for “Assay Conditions D:”, “CO2.” for “C02.”, “module. The DRCs were plotted, half-effective concentration (EC50) and half-cytotoxic concentration (CC50) were calculated using GraphPad Prism Software, version 6.05 (GraphPad Software, San Diego, CA).” for “module.”

SMILES	SI
Cc1cc(F)ccc1C1c2c(CC(C)C)n[nH]c2C(=O)N1c1ccc(N(C)C)cc1 (stereo not drawn) [Compound 81, 5-(4-(dimethylamino)phenyl)-4-(4-fluoro-2-methylphenyl)-3-isobutyl-4,5-dihydropyrrolo[3,4-c]pyrazol-6(1H)-one]	68.3
Cc1cc(F)ccc1C1c2c(CC(C)C)n[nH]c2C(=O)N1c1ccc(Br)cc1 (stereo not drawn) [Compound 76, 5-(4-bromophenyl)-4-(4-fluoro-2-methylphenyl)-3-isobutyl-4,5-dihydropyrrolo[3,4-c]pyrazol-6(1H)-one]	25.3
COc1cc(F)ccc1C1c2c(CC(C)C)n[nH]c2C(=O)N1c1ccc(N(C)C)cc1 (stereo not drawn) [Compound 82, 5-(4-(dimethylamino)phenyl)-4-(4-fluoro-2-methoxyphenyl)-3-isobutyl-4,5-dihydropyrrolo[3,4-c]pyrazol-6(1H)-one]	212.5
CC(C)Cc1n[nH]c2c1C(c1ccccc1Cl)N(c1ccc3c(c1)OCO3)C2=O (stereo not drawn) [Compound 67, 5-(benzo[d][1,3]dioxol-5-yl)-4-(2-chlorophenyl)-3-isobutyl-4,5-dihydropyrrolo[3,4-c]pyrazol-6(1H)-one]	76.4
COc1ccc(N2C(=O)c3[nH]nc(CC(C)C)c3C2c2ccc(F)cc2)cc1 (racemic) [Compound 1, 4-(4-fluorophenyl)-3-isobutyl-5-(4-methoxyphenyl)-4,5-dihydropyrrolo[3,4-c]pyrazol-6(1H)-one]	>24.4
COc1cc(F)ccc1C1c2c(CC(C)C)n[nH]c2C(=O)N1c1ccc(Br)cc1 (stereo not drawn) [Compound 77, 5-(4-bromophenyl)-4-(4-fluoro-2-methoxyphenyl)-3-isobutyl-4,5-dihydropyrrolo[3,4-c]pyrazol-6(1H)-one]	33.7
Cc1cc(F)ccc1C1c2c(CC(C)C)n[nH]c2C(=O)N1c1ccc2ncnn2c1 (stereo not drawn) [Compound 89, 5-([1,2,4]triazolo[1,5-a]pyridin-6-yl)-4-(4-fluoro-2-methylphenyl)-3-isobutyl-4,5-dihydropyrrolo[3,4-c]pyrazol-6(1H)-one]	>24.4

Same assay, conditions: rows whose L. donovani potency is in B10R cells (d)

SMILES	SI Host cell potency/L. donovani potency
CC(C)Cc1n[nH]c2c1C(c1ccccc1Cl)N(c1ccc3c(c1)OCO3)C2=O (stereo not drawn) [CMLD010902]	76.4
COc1cc(F)ccc1C1c2c(CC(C)C)n[nH]c2C(=O)N1c1ccc(Br)cc1 (stereo not drawn) [CMLD011494]	33.7
CC(C)Cc1n[nH]c2c1C(c1ccccc1Br)N(c1ccc(N(C)C)cc1)C2=O (stereo not drawn) [CMLD011554]	71.5
COc1ccc(N2C(=O)c3[nH]nc(CC(C)C)c3C2c2ccccc2Br)cc1F (stereo not drawn) [CMLD012217]	7.2
CC(C)Cc1n[nH]c2c1C(c1ccccc1Br)N(c1ccc(Br)cc1)C2=O (stereo not drawn) [CMLD011551]	12.8
CC(C)Cc1n[nH]c2c1C(c1ccccc1Br)N(c1ccc3c(c1)OCO3)C2=O (stereo not drawn) [CMLD011548]	>69.0
COc1ccc(N2C(=O)c3[nH]nc(CC(C)C)c3C2c2ccccc2Cl)cn1 (stereo not drawn) [BUCMD00686]	8.9
CC(C)Cc1n[nH]c2c1C(c1ccccc1Cl)N(c1ccc3ncnn3c1)C2=O (stereo not drawn) [CMLD010921]	>55.6
CC(C)Cc1n[nH]c2c1C(c1ccccc1Cl)N(c1ccc(N(C)C)cc1)C2=O (stereo not drawn) [CMLD010920]	28.2
COc1ccc(N2C(=O)c3[nH]nc(CC(C)C)c3C2c2ccccc2Br)cn1 (stereo not drawn) [CMLD012218]	>54.1

These molecules were tested on L. donovani intracellular amastigotes infecting THP-1 macrophages (assay: GSK intramacrophage L. donovani assay (LD AMMAC, inMac; Assay Conditions C)). Conditions: (LD MAC EC50)/(LD AMMAC EC50).
Format: cell-based, Leishmania donovani
Summary of the method: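 L. donovani amastigotes within THP-1 macrophages; EC50 based on average intracellular amastigotes per infected cell (AMMAC). Infected-cell percentage (INFCELL) and host-cell number (MAC) also read, the latter as toxicity output.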

SMILES	SI MAC
COc1ccc(N2C(=O)c3[nH]nc(CC(C)C)c3C2c2ccc(F)cc2)cc1 (racemic) [Compound 1, 4-(4-fluorophenyl)-3-isobutyl-5-(4-methoxyphenyl)-4,5-dihydropyrrolo[3,4-c]pyrazol-6(1H)-one]	6.3
